## HIV-1 LAI Vif substitutions under APOBEC3G selection

Source: Langley et al. 2025, preprint (doi:10.1101/2025.10.20.683452), supplementary data.

Vif of LAI (a laboratory-adapted subtype B strain), residues 12-115; positions count from the first residue of the whole protein:
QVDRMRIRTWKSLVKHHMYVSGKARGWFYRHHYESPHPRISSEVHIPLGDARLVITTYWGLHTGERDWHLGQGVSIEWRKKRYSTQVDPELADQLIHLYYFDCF

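A pool of vif mutants was passaged twice, 72 h each, on SupT1 cells that express APOBEC3G. Frequencies after the second round, in three biological replicates, were compared with the merged pool after the first round. Changes do not touch integrase, since the pol overlap was removed.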

Scale: log2 enrichment, wild type = 0; negative values mean that the variant was depleted. Substitutions are written as wild-type residue, site number, new residue. The median of three replicates is given, with the replicates in brackets. Input reads are the counts in the merged round-one pool, before selection. Replicates agree only moderately (rank correlation about 0.4-0.65); scores from under about 50 input reads tend to be too high.

change	input reads	median score
R41D	428	-2.63 (-2.63 / -3.71 / -0.98)
R41E	171	-0.82 (-1.07 / 2.55 / -0.82)
R41G	235	0.61 (0.61 / -1.21 / 4.02)
R41I	551	-0.52 (-0.52 / -2.24 / 1.55)
R41K	416	-1.91 (-1.66 / -1.91 / -2.10)
R41L	172	3.28 (1.05 / 3.89 / 3.28)
R41N	434	-2.17 (-2.20 / 1.02 / -2.17)
R41P	1370	-1.88 (-1.50 / -2.83 / -1.88)
R41Q	86	0.41 (4.58 / -0.75 / 0.41)
R41S	30	-1.14 (-2.28 / 1.20 / -1.14)
R41T	48	1.30 (1.30 / 4.67 / -0.22)
R41V	405	-3.20 (-3.20 / -2.35 / -4.14)
R41W	520	-1.77 (1.92 / -2.77 / -1.77)
R41Y	42	0.70 (0.70 / 4.25 / -0.03)
H42A	636	-0.81 (2.13 / -1.48 / -0.81)
H42C	203	-2.19 (-2.19 / 1.08 / -2.33)
H42D	189	0.15 (4.32 / -0.92 / 0.15)
H42E	406	1.95 (0.44 / 1.95 / 2.79)
H42F	465	-1.34 (0.03 / -2.09 / -1.34)
H42G	498	-3.34 (-2.21 / -4.13 / -3.34)
H42I	10437	-3.18 (-2.40 / -4.04 / -3.18)
H42K	779	1.39 (1.88 / -2.43 / 1.39)
H42L	22	-0.01 (1.88 / -2.33 / -0.01)
H42N	199	1.26 (1.26 / 1.73 / 1.21)
H42P	1103	-0.40 (1.91 / -2.41 / -0.40)
H42Q	1456	-1.40 (-1.40 / -3.48 / -0.36)
H42R	62	1.48 (2.37 / 0.11 / 1.48)
H42S	98	1.00 (1.00 / -1.95 / 4.35)
H42T	508	0.57 (1.13 / 0.57 / 0.37)
H42V	2562	-0.42 (1.08 / -2.73 / -0.42)
H42W	61	3.20 (3.20 / 4.29 / 2.53)
H42Y	1606	-1.39 (-1.16 / -3.20 / -1.39)
H43A	480	1.54 (2.31 / 1.54 / -1.15)
H43C	851	-4.36 (-2.84 / -4.58 / -4.36)
H43D	87	0.95 (0.95 / -1.17 / 4.37)
H43E	557	1.01 (-1.35 / 1.13 / 1.01)
H43G	418	-4.18 (-2.61 / -4.37 / -4.18)
H43I	409	-1.83 (-2.13 / -1.63 / -1.83)
H43K	541	-1.92 (-1.92 / 0.83 / -3.17)
H43N	670	-1.79 (-1.79 / -1.96 / 0.11)
H43Q	265	-1.76 (-1.50 / -2.37 / -1.76)
H43R	400	-0.87 (-0.87 / -3.06 / -0.66)
H43V	353	-0.90 (-1.18 / 1.53 / -0.90)
H43W	418	-1.08 (-0.86 / -3.83 / -1.08)
H43Y	1279	-0.94 (-0.94 / -1.99 / 2.59)
Y44A	997	-2.18 (-1.48 / -3.10 / -2.18)
Y44D	516	-0.75 (-0.75 / 0.76 / -1.29)
Y44E	381	-2.70 (-0.25 / -2.90 / -2.70)
Y44F	913	-2.24 (-2.05 / -3.48 / -2.24)
Y44H	943	-0.37 (2.11 / -0.37 / -2.10)
Y44L	346	-2.02 (-0.57 / -2.85 / -2.02)
Y44Q	223	-4.00 (-1.24 / -4.00 / -4.05)
Y44R	453	-2.75 (-2.27 / -3.95 / -2.75)
Y44W	506	-0.84 (-0.31 / -1.61 / -0.84)
E45A	653	2.60 (-0.09 / 2.60 / 4.01)
E45D	517	-0.86 (-1.14 / 1.66 / -0.86)
E45F	129	2.06 (2.06 / 4.40 / 1.19)
E45G	121	0.66 (5.20 / -0.85 / 0.66)
E45H	57	1.07 (1.07 / 4.31 / -1.29)
E45I	385	-2.02 (-2.02 / -3.19 / -1.32)
E45L	29	0.10 (0.10 / -4.23 / 0.81)
E45P	527	-0.55 (-0.55 / -2.72 / 3.62)
E45R	754	-1.77 (-1.77 / -2.34 / -1.22)
E45S	968	-2.21 (-2.21 / 0.10 / -3.05)
E45T	339	-3.42 (-3.42 / -6.17 / -2.72)
E45V	247	-2.55 (-2.12 / -4.13 / -2.55)
E45W	113	0.36 (5.09 / -1.13 / 0.36)
E45Y	476	-2.97 (-1.99 / -4.00 / -2.97)
S46A	627	-3.96 (-2.90 / -4.77 / -3.96)
S46C	52	-1.19 (0.15 / -1.19 / -1.23)
S46D	954	-2.00 (-1.53 / -3.02 / -2.00)
S46E	3099	-1.52 (2.61 / -2.68 / -1.52)
S46F	461	-2.09 (-2.45 / -2.09 / -1.07)
S46G	648	-1.36 (-1.36 / 0.15 / -2.42)
S46I	835	-1.01 (-1.40 / -1.01 / 0.08)
S46K	460	-3.22 (0.45 / -4.14 / -3.22)
S46N	879	-2.66 (-1.47 / -3.06 / -2.66)
S46Q	520	-2.92 (-3.52 / -2.92 / -2.33)
S46R	1083	1.73 (2.00 / 1.20 / 1.73)
S46T	980	-2.60 (-2.60 / -3.59 / 0.52)
S46V	1248	-2.84 (-2.84 / -0.52 / -3.87)
S46W	470	0.29 (0.29 / 1.70 / -1.67)
S46Y	1350	-1.97 (-1.47 / -3.34 / -1.97)

A selection of 5 entries from above:

{"change": "H43D", "input reads": "87", "median score": "0.95 (0.95 / -1.17 / 4.37)"}
{"change": "H43G", "input reads": "418", "median score": "-4.18 (-2.61 / -4.37 / -4.18)"}
{"change": "Y44L", "input reads": "346", "median score": "-2.02 (-0.57 / -2.85 / -2.02)"}
{"change": "S46V", "input reads": "1248", "median score": "-2.84 (-2.84 / -0.52 / -3.87)"}
{"change": "Y44F", "input reads": "913", "median score": "-2.24 (-2.05 / -3.48 / -2.24)"}

The authors note that some positive scores may be noise, and some enriched variants failed when tested singly. Not every substitution is listed.